Pooled drug test results. Numbers come from NIAID ChemDB, via PubChem.

All rows: tests in culture; species: Hepatitis B virus; read by: PCR; endpoint: EC50

ECn: concentration that inhibits the pathogen or its effect by n%. Lines come from different laboratories, so protocols vary. a–b is a range or a potency band.

{"compound": "C[C@H](Oc1ccc([C@H](C)NC(=O)c2c3n(c(=O)n2-c2ccc(OC4CC4)cc2)CCN(C(=O)c2ccc(Br)c(Cl)c2)C3)c(F)c1)C(N)=O", "cells": "HepG2.117", "result": "<0.1 µM"}
{"compound": "Cn1cc(S(=O)(=O)Nc2ccc3c(C(=O)Nc4ccc(F)c(Cl)c4)n(C)nc3n2)cn1", "cells": "HepAD38", "result": ">1000 µM"}
{"compound": "C[C@@H](NC(=O)c1c2n(c(=O)n1-c1ccc(OC3CC3)cc1)CCN(C(=O)c1ccc(Br)c(Cl)c1)C2)c1ccc(OCC#N)cc1F", "cells": "HepG2.117", "result": "0.1–0.5 µM"}
{"compound": "Cn1nc2cc(N(CCO)S(=O)(=O)c3cnn(-c4cc(OCC5CC5)ccn4)c3)ccc2c1C(=O)Nc1ccc(F)c(Cl)c1", "cells": "HepAD38", "result": ">1000 µM"}
{"compound": "CCn1cc(S(=O)(=O)N[C@@H]2CCCN(S(=O)(=O)NC)C2)c(F)c1C(=O)Nc1ccc(F)c(F)c1", "cells": "HepAD38 cells", "result": "<0.1 µM"}
{"compound": "C#CC1(NC(=O)C(=O)c2c(C)c(C(=O)Nc3ccc(Cl)c(Br)c3)n(C)c2C)CC(F)(F)C1", "cells": "HepG2.2.15", "result": "0.001–0.0099 µM"}
{"compound": "C[C@H](Oc1ccc([C@H](C)NC(=O)c2c3n(c(=O)n2-c2ccc(OCC(F)(F)F)cc2)CCN(C(=O)c2ccc(Br)c(Cl)c2)C3)c(F)c1)C(N)=O", "cells": "HepG2.117", "result": "0.1–0.5 µM"}
{"compound": "Cn1cc(S(=O)(=O)N[C@@H]2CCN(S(=O)(=O)c3ccc(F)cc3)C2)c(F)c1C(=O)Nc1ccc(F)c(F)c1", "cells": "HepAD38 cells", "result": "<0.1 µM"}
{"compound": "Cc1cccnc1-n1cc(S(=O)(=O)Nc2ccc3c(C(=O)Nc4ccc(F)c(Cl)c4)n(C)nc3c2)cn1", "cells": "HepAD38", "result": "<100 µM"}
{"compound": "O=C1COc2ccc(CNC(=O)c3c4n(c(=O)n3-c3ccc(OC5CC5)cc3)CCN(C(=O)c3ccc(Br)c(Cl)c3)C4)cc2N1", "cells": "HepG2.117", "result": "0.5–5 µM"}
{"compound": "Cn1cc(S(=O)(=O)Nc2cc3nn(C)c(C(=O)Nc4ccc(F)c(Cl)c4)c3cn2)cn1", "cells": "HepAD38", "result": "100–1000 µM"}
{"compound": "C#C[C@H](NC(=O)C(=O)c1c(C)c(C(=O)Nc2ccc(F)c(C#N)c2)n(C)c1C)OC", "cells": "HepG2.2.15", "result": "0.001–0.0099 µM"}
{"compound": "CNS(=O)(=O)N1CCC(C)C(NS(=O)(=O)c2cn(C)c(C(=O)Nc3ccc(F)c(F)c3)c2F)C1", "cells": "HepAD38 cells", "result": "<0.1 µM"}
{"compound": "C=CCNC(=O)C(=O)c1c(C)c(C(=O)Nc2ccnc(Br)c2F)n(C)c1C", "cells": "HepG2.2.15", "result": "0.01–0.099 µM"}
{"compound": "CC(C)Oc1ccc(-n2c(C(=O)NCc3ccc(C(C)(C)O)cc3)c3n(c2=O)CCN(C(=O)c2ccc(Br)c(Cl)c2)C3)cc1", "cells": "HepG2.117", "result": "<0.1 µM"}
{"compound": "Cn1cc(C(=O)C(=O)Nc2ccc3c(C(=O)Nc4ccc(F)c(Cl)c4)n(C)nc3c2)cn1", "cells": "HepAD38", "result": "100–1000 µM"}
{"compound": "COc1ccc(-n2c(C(=O)NCC3CC3)c3n(c2=O)CCN(C(=O)c2ccc(Cl)c(Cl)c2)C3)cc1", "cells": "HepG2.117", "result": ">5 µM"}
{"compound": "Cn1nc2cc(S(=O)(=O)NCC3CC3)ccc2c1C(=O)Nc1ccc(F)c(Cl)c1", "cells": "HepAD38", "result": "100–1000 µM"}
{"compound": "CNS(=O)(=O)N1CCC(C)(NS(=O)(=O)c2cn(C)c(C(=O)Nc3ccc(F)c(F)c3)c2F)CC1", "cells": "HepAD38 cells", "result": "<0.1 µM"}
{"compound": "C#C[C@@H](C)NC(=O)C(=O)c1c(C)c(C(=O)Nc2ccc(F)c(C#N)c2)n(C)c1C", "cells": "HepG2.2.15", "result": "0.001–0.0099 µM"}
{"compound": "Cn1nc2cc(N(CC#N)S(=O)(=O)NC3CC3)ccc2c1C(=O)Nc1ccc(F)c(Cl)c1", "cells": "HepAD38", "result": ">1000 µM"}

For reference, 2 entries again:

compound,cells,result
CNS(=O)(=O)N1CCC(C)(NS(=O)(=O)c2cn(C)c(C(=O)Nc3ccc(F)c(F)c3)c2F)CC1,HepAD38 cells,<0.1 µM
C#C[C@@H](C)NC(=O)C(=O)c1c(C)c(C(=O)Nc2ccc(F)c(C#N)c2)n(C)c1C,HepG2.2.15,0.001–0.0099 µM